Experimental data: publication PMC4958397, “Synthesis, antibacterial and antiproliferative potential of some new 1-pyridinecarbonyl-4-substituted thiosemicarbazide derivatives” (Medicinal Chemistry Research, 2016)

What was measured:
Experiment in all cases: Broth microdilution MIC
Format in all cases: cell-based
[1] = tested on: Escherichia coli ATCC 25922; conditions: CC50 in BJ cells / MIC E. coli
Text: (§1) Panel reference strains of bacteria from the American Type Culture Collection or Polish Collection of Microorganisms, including aerobic Gram-positive bacteria: Staphylococcus aureus ATCC 25923 and Staphylococcus epidermidis ATCC 12228, and aerobic Gram-negative bacteria: Escherichia coli ATCC 25922 and Pseudomonas aeruginosa ATCC 9027, as well as microaerobic Gram-positive bacteria: Lactobacillus spp., Lactobacillus acidophilus PCM 2105, Streptococcus mutans PCM 2502 and Streptococcus sanguinis PCM 2335, were used. Microbial suspensions with an optical density of 0.5 McFarland standard at 1.5 × 10^8 CFU/mL (CFU: colony forming unit) were prepared in sterile 0.9 % NaCl. Mueller–Hinton (M–H) broth and M–H agar (Oxoid Ltd., England) for aerobic strains, and MRS Broth Lactobacillus, MRS Agar Lactobacillus (BioMaxima S.A., Poland), BHI Broth and BHI agar (BioMaxima S.A., Poland) for microaerobic strains were used in the microbial tests.
(§2) A broth microdilution method was used to evaluate the minimum inhibition concentration (MIC) according to the CLSI document (CLSI performance standards for antimicrobial susceptibility testing, 2008, Eighteenth International Supplement, CLSI document M7-MIC, Clinical Laboratory Standards Institute, Wayne) with some modifications. […] A serial doubling dilution of the compounds was prepared in 96-well plates (200 μL per well). A suitable medium (M-H Broth, MRS Broth Lactobacillus, BHI Broth) was used as a diluent. The final concentrations of derivatives were 1000–0.015 μg/mL. Finally, 2 μL of inoculum of the tested bacterial strain (1.5 × 10^8 CFU/mL) was added to each well. The tests were performed either at 36 °C for 18 h (aerobic strains) or at 40 h (microaerobic strains). After incubation, the panel was digitally analyzed at 600 nm using the microplate reader Bio Tech Synergy (USA) with a dedicated software system. The growth intensity in each well was compared with the negative and positive controls.

[2] = tested on: Staphylococcus aureus ATCC 25923; conditions: CC50 in BJ cells / MIC S. aureus
Text: as §1, §2

Lactobacillus spp. = conditions: CC50 in BJ cells / MIC Lactobacillus spp.
Text: as §1, §2

[3] = tested on: Streptococcus sanguinis PCM 2335; conditions: CC50 in BJ cells / MIC S. sanguinis
Text: as §1, §2

[4] = tested on: Streptococcus mutans PCM 2502; conditions: CC50 in BJ cells / MIC S. mutans
Text: as §1, §2

[5] = tested on: Lactobacillus acidophilus PCM 210; conditions: CC50 in BJ cells / MIC L. acidophilus
[6] = tested on: Pseudomonas aeruginosa ATCC 9027; conditions: CC50 in BJ cells / MIC P. aeruginosa
Text: as §1, §2

With `CSc1ccc(NC(=S)NNC(=O)c2ccccn2)cc1` [Compound 5, 4-(4-Methylthiophenyl)-1-(pyridin-2-yl)carbonylthiosemicarbazide] the “TI (therapeutic index, CC50/MIC), E.c.” value [1] was 0.38, the “TI (therapeutic index, CC50/MIC), S.a.” value [2] was 0.19 and the “TI (therapeutic index, CC50/MIC), L.spp.” value (Lactobacillus spp.) was 0.09. For the same compound, the “TI (therapeutic index, CC50/MIC), S.s.” value [3] was 1.53, the “TI (therapeutic index, CC50/MIC), S.m.” value [4] was 1.53 and the “TI (therapeutic index, CC50/MIC), L.a.” value [5] was 0.10.

For `O=C(NNC(=S)Nc1ccc(Cl)cc1Cl)c1ccccn1` [Compound 4, 4-(2,4-Dichlorophenyl)-1-(pyridin-2-yl)carbonylthiosemicarbazide], the “TI (therapeutic index, CC50/MIC), E.c.” value [1] was 0.31, the “TI (therapeutic index, CC50/MIC), S.a.” value [2] was 0.62 and the “TI (therapeutic index, CC50/MIC), L.spp.” value (Lactobacillus spp.) was 0.62. For the same compound, the “TI (therapeutic index, CC50/MIC), S.s.” value [3] was 2.50, the “TI (therapeutic index, CC50/MIC), S.m.” value [4] was 0.62 and the “TI (therapeutic index, CC50/MIC), L.a.” value [5] was 0.62.

With `O=C(NNC(=S)Nc1ccc(Cl)cc1Cl)c1cccnc1` [Compound 7, 4-(2,4-Dichlorophenyl)-1-(pyridin-3-yl)carbonylthiosemicarbazide] the “TI (therapeutic index, CC50/MIC), S.m.” value [4] was 0.18.

In the case of `CSc1ccc(NC(=S)NNC(=O)c2cccnc2)cc1` [Compound 6, 4-(4-Methylthiophenyl)-1-(pyridin-3-yl)carbonylthiosemicarbazide], the “TI (therapeutic index, CC50/MIC), E.c.” value [1] is reported as 14.68, the “TI (therapeutic index, CC50/MIC), S.a.” value [2] is reported as 3.67 and the “TI (therapeutic index, CC50/MIC), S.s.” value [3] is reported as 58.7. For the same compound, the “TI (therapeutic index, CC50/MIC), S.m.” value [4] was 3.67.

For `CCOc1ccc2nc3cc(N)ccc3c(N)c2c1` [Ethacridine lactate, ethacridine lactate, reference compound], the “TI (therapeutic index, CC50/MIC), S.a.” value [2] was 0.22, the “TI (therapeutic index, CC50/MIC), S.m.” value [4] was 0.11 and the “TI (therapeutic index, CC50/MIC), L.a.” value [5] was 0.22.

In the case of `O=C(NNC(=S)Nc1ccc(Cl)cc1Cl)c1ccncc1` [Compound 10, 4-(2,4-Dichlorophenyl)-1-(pyridin-4-yl)carbonylthiosemicarbazide], the “TI (therapeutic index, CC50/MIC), S.a.” value [2] is reported as 2.25, the “TI (therapeutic index, CC50/MIC), S.m.” value [4] is reported as 1.12 and the “TI (therapeutic index, CC50/MIC), L.a.” value [5] is reported as 0.28.

`O=C(NNC(=S)Nc1ccccc1F)c1ccccn1` [Compound 1, 4-(2-Fluorophenyl)-1-(pyridin-2-yl)carbonylthiosemicarbazide] was tested, and the “TI (therapeutic index, CC50/MIC), E.c.” value [1] was 3.41, the “TI (therapeutic index, CC50/MIC), S.a.” value [2] was 6.82 and the “TI (therapeutic index, CC50/MIC), L.spp.” value (Lactobacillus spp.) was 6.83. For the same compound, the “TI (therapeutic index, CC50/MIC), S.s.” value [3] was 0.43, the “TI (therapeutic index, CC50/MIC), S.m.” value [4] was 0.85 and the “TI (therapeutic index, CC50/MIC), P.a.” value [6] was 0.43. The “TI (therapeutic index, CC50/MIC), L.a.” value [5] was 1.70.

In the case of `[H]/N=C(\N/C(=N/[H])NCCCCCCNC(=N)NC(=N)Nc1ccc(Cl)cc1)Nc1ccc(Cl)cc1` [CLX, chlorhexidine digluconate, reference compound], the “TI (therapeutic index, CC50/MIC), E.c.” value [1] is reported as 17.33, the “TI (therapeutic index, CC50/MIC), S.a.” value [2] is reported as 17.33 and the “TI (therapeutic index, CC50/MIC), L.spp.” value (Lactobacillus spp.) is reported as 34.6. For the same compound, the “TI (therapeutic index, CC50/MIC), S.s.” value [3] was 1.08, the “TI (therapeutic index, CC50/MIC), S.m.” value [4] was 17.33 and the “TI (therapeutic index, CC50/MIC), P.a.” value [6] was 0.54. For the same compound, the “TI (therapeutic index, CC50/MIC), L.a.” value [5] was 8.66.

With `O=C(NNC(=S)Nc1ccccc1Cl)c1ccccn1` [Compound 2, 4-(2-Chlorophenyl)-1-(pyridin-2-yl)carbonylthiosemicarbazide] the “TI (therapeutic index, CC50/MIC), E.c.” value [1] was 0.36, the “TI (therapeutic index, CC50/MIC), S.a.” value [2] was 0.72 and the “TI (therapeutic index, CC50/MIC), L.spp.” value (Lactobacillus spp.) was 0.72. The “TI (therapeutic index, CC50/MIC), S.s.” value [3] was 0.09, the “TI (therapeutic index, CC50/MIC), S.m.” value [4] was 0.09 and the “TI (therapeutic index, CC50/MIC), L.a.” value [5] was 0.36.
